## Structure probing of HIV-1 leader RNA with DMS

The 5' region of HIV-1 NL4-3 RNA (positions 1-437):
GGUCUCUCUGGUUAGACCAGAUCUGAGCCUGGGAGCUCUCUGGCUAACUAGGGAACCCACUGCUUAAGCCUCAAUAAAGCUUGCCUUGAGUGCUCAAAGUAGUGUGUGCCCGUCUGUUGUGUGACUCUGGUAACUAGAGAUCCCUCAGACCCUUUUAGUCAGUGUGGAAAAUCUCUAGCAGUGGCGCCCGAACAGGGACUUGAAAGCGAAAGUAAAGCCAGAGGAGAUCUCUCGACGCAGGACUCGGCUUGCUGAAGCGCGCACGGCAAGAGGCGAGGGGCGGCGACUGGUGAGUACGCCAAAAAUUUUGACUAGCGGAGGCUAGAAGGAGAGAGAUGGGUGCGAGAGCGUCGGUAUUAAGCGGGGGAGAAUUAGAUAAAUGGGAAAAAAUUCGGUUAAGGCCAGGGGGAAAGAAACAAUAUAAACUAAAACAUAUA

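Mutant RNA libraries with 1G, 2G or 3G starts, with or without cap, were folded at 37 °C for 30 min. Monomer and dimer bands were cut from native gels after folding in high salt (300 mM KCl, 5 mM MgCl2) or low salt (40 mM KCl, 0.1 mM MgCl2). Each band was probed in the gel with DMS (170 mM, 15 min, 37 °C), with ethanol as control, and sequenced.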

Values are winsor-normalised DMS reactivities of A and C; higher means more reactive, usually unpaired.
One numbering serves 1G, 2G and 3G.
A position is written with its base.

- C231 (domain CU) = 3G uncapped low-salt monomer 0.23; 2G capped low-salt dimer 0.12; 2G capped high-salt monomer 0.14; 2G capped high-salt dimer 0.12
- C233 (domain CU) = 3G uncapped low-salt monomer 0.36; 2G capped low-salt dimer 0.17; 2G capped high-salt monomer 0.27; 2G capped high-salt dimer 0.14
- A235 = 3G uncapped low-salt monomer 0.61; 2G capped low-salt dimer 0.74; 2G capped high-salt monomer 0.70; 2G capped high-salt dimer 0.74
- C236 = 3G uncapped low-salt monomer 0.51; 2G capped low-salt dimer 0.43; 2G capped high-salt monomer 0.53; 2G capped high-salt dimer 0.41
- C238 = 3G uncapped low-salt monomer 0.85; 2G capped low-salt dimer 0.47; 2G capped high-salt monomer 0.74; 2G capped high-salt dimer 0.45
- A239 = 3G uncapped low-salt monomer 0.59; 2G capped low-salt dimer 0.71; 2G capped high-salt monomer 0.61; 2G capped high-salt dimer 0.72
- A242 = 3G uncapped low-salt monomer 0.81; 2G capped low-salt dimer 1.04; 2G capped high-salt monomer 0.89; 2G capped high-salt dimer 1.05
- C243 (domain SL1) = 3G uncapped low-salt monomer 0.06; 2G capped low-salt dimer 0.04; 2G capped high-salt monomer 0.06; 2G capped high-salt dimer 0.03
- C245 (domain SL1) = 3G uncapped low-salt monomer 0.34; 2G capped low-salt dimer 0.07; 2G capped high-salt monomer 0.23; 2G capped high-salt dimer 0.05
- C248 (domain SL1) = 3G uncapped low-salt monomer 0.06; 2G capped low-salt dimer 0.03; 2G capped high-salt monomer 0.05; 2G capped high-salt dimer 0.03
- C252 (domain SL1) = 3G uncapped low-salt monomer 0.32; 2G capped low-salt dimer 0.06; 2G capped high-salt monomer 0.19; 2G capped high-salt dimer 0.04
- A255 (domain SL1) = 3G uncapped low-salt monomer 0.47; 2G capped low-salt dimer 0.48; 2G capped high-salt monomer 0.48; 2G capped high-salt dimer 0.47
- A256 (domain SL1) = 3G uncapped low-salt monomer 0.78; 2G capped low-salt dimer 1.03; 2G capped high-salt monomer 0.84; 2G capped high-salt dimer 1.03
- C258 (domain SL1) = 3G uncapped low-salt monomer 0.32; 2G capped low-salt dimer 0.26; 2G capped high-salt monomer 0.35; 2G capped high-salt dimer 0.22
- C260 (domain SL1) = 3G uncapped low-salt monomer 0.42; 2G capped low-salt dimer 0.38; 2G capped high-salt monomer 0.51; 2G capped high-salt dimer 0.32
- C262 (domain SL1) = 3G uncapped low-salt monomer 0.38; 2G capped low-salt dimer 0.25; 2G capped high-salt monomer 0.42; 2G capped high-salt dimer 0.21
- A263 (domain SL1) = 3G uncapped low-salt monomer 0.23; 2G capped low-salt dimer 0.81; 2G capped high-salt monomer 0.23; 2G capped high-salt dimer 0.84
- C264 (domain SL1) = 3G uncapped low-salt monomer 0.50; 2G capped low-salt dimer 0.21; 2G capped high-salt monomer 0.42; 2G capped high-salt dimer 0.18
- C267 (domain SL1) = 3G uncapped low-salt monomer 0.13; 2G capped low-salt dimer 0.06; 2G capped high-salt monomer 0.16; 2G capped high-salt dimer 0.05
- A268 (domain SL1) = 3G uncapped low-salt monomer 0.24; 2G capped low-salt dimer 0.17; 2G capped high-salt monomer 0.28; 2G capped high-salt dimer 0.15
- A269 (domain SL1) = 3G uncapped low-salt monomer 0.41; 2G capped low-salt dimer 0.25; 2G capped high-salt monomer 0.48; 2G capped high-salt dimer 0.22

A selection of 2 entries from above:

{"position": "C258", "domain": "SL1", "3G uncapped low-salt monomer": 0.32, "2G capped low-salt dimer": 0.26, "2G capped high-salt monomer": 0.35, "2G capped high-salt dimer": 0.22}
{"position": "C233", "domain": "CU", "3G uncapped low-salt monomer": 0.36, "2G capped low-salt dimer": 0.17, "2G capped high-salt monomer": 0.27, "2G capped high-salt dimer": 0.14}

Data from the supplement of Ye et al. 2022, doi:10.1038/s41594-022-00746-2.